Literature values as cited in PMC12154458, “High-Throughput Screens of Repurposing Hub and DOS Chemical Libraries Reveal Compounds with Novel and Potent Inhibitory Activity Against the Essential Non-Neuronal Acetylcholinesterase of Schistosoma mansoni (SmTAChE)” (International Journal of Molecular Sciences, 2025).

Protein sequences, listed by entry. Tags and fused reporters are not part of them. Residues count along the entry.
UniProt A0A3Q0KMM5, 27-661 limits assumed: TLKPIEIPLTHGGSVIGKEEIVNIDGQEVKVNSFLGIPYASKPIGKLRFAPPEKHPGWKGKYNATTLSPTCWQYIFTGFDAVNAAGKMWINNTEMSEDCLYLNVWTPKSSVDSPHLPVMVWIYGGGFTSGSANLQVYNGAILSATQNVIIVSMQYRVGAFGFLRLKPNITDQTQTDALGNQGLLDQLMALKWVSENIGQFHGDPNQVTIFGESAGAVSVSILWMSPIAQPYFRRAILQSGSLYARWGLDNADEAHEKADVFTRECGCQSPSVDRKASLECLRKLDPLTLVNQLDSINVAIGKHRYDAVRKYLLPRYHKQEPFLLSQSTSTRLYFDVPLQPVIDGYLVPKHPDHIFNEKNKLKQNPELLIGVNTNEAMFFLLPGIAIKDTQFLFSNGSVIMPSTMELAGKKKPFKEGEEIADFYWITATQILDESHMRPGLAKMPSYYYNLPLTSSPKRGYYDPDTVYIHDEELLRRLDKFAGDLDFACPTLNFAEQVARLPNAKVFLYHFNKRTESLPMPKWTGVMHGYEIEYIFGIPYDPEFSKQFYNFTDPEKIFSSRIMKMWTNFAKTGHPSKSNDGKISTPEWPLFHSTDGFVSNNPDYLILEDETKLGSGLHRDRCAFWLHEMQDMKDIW

Molecular target: rSmTAChE (Schistosoma mansoni, UniProt A0A3Q0KMM5)
Details: read-out: IC50 rSmTAChE; preliminary screening of Broad Institute Validation Library; cited from earlier work

**Q.** For COc1cc(CNCCc2ccccc2F)ccc1OCC(=O)N1CCCCC1, which IC50 is on record?
**A.** 740 nM
